Measured values from several laboratories, pooled; numbers as filed in NIAID ChemDB.

All rows: growth or infection tests; organism: Mycobacterium tuberculosis

Lines come from different laboratories, so protocols vary. An empty or dashed field is not shown. MIC bound comes from a single tested concentration. Percent inhibition refers to the dose given; in toxicity tests it is the harm to the cells. MIC50, MIC90 and the like: level of inhibition, or share of isolates inhibited. ECn is the concentration giving n% inhibition of infection, replication or growth.

SMILES,changes,method,dose,endpoint,strain,cells,value
Cl.NOCCc1ccccc1,,,,MIC,H37Rv,,100 µg/mL
CCOC(=O)Nc1cc(NC(C)C(=O)Cc2ccccc2)c([N+](=O)[O-])c(N)n1,,,,EC50,H37Rv,,>12.5 µg/mL
C[C@H]1COc2c(N3CCN(C)CC3)c(F)cc3c(=O)c(C(=O)O)cn1c23,,,,MIC,ATCC 35830,,0.25 µg/mL
CN[C@@H]1[C@H](O[C@H]2[C@H](O[C@H]3[C@H](O)[C@@H](O)[C@H](N=C(N)N)[C@@H](O)[C@@H]3N=C(N)N)O[C@@H](C)[C@]2(O)C=O)O[C@@H](CO)[C@H](O)[C@H]1O,,,,MIC,9120,,<2 µg/mL
COc1ccc(CSc2ccncc2)cc1,,,,MIC90,H37Rv,,>6.25 µg/mL
CCOC(=O)Nc1cc(NCC(O)CN(C)c2ccc(OC)cc2)c([N+](=O)[O-])c(N)n1,,,12.5 µg/mL,inhibition,H37Rv,,0%
CCOc1ccc2c(c1)n([O-])c1cc(Cl)ccc1[n+]2=O,,,,MIC,TAC-R,,3.1 µg/mL
O=C(N/N=C/c1cccc(F)c1)c1ccncc1,,,,MIC,Ciprofloxacin-resistant,,0.2 µg/mL
N#CCc1cccs1,,,,MIC,H37Rv,,100 µg/mL
CCN(CC)c1ccc2nc3ccc(N(CC)CC)cc3[n+](-c3ccccc3)c2c1.[Cl-],,BACTEC,,MIC,H37Rv,VERO,0.05 µg/mL
CCCCCCCCCCCNCCNC1CCCC1,,,,MIC,,,50 µM
CO[C@H]1/C=C/O[C@@]2(C)Oc3c(C)c(O)c4c(O)c(c5c(c4c3C2=O)NC2(CCN(CC(C)C)CC2)N=5)=NC(=O)/C(C)=C\C=C\[C@H](C)[C@H](O)[C@@H](C)[C@@H](O)[C@@H](C)[C@H](OC(C)=O)[C@@H]1C,,,,MIC,26 (rifampicin-resistant),,>2 µg/mL
CC(CNCCC(c1ccccc1)c1ccccc1)NC1CCCCCCC1,,,,MIC,,,12.5 µM
CCOC(=O)Nc1cc(N)c([N+](=O)[O-])c(N)n1,,,,EC50,H37Rv,,>12.5 µg/mL
CC[C@H]1OC(=O)[C@H](C)[C@@H](O[C@H]2C[C@@](C)(OC)[C@@H](O)[C@H](C)O2)[C@H](C)[C@@H](O[C@@H]2O[C@H](C)C[C@H](N(C)C)[C@H]2O)[C@](C)(O)C[C@@H](C)C(=O)[C@H](C)[C@@H](O)[C@]1(C)O,,,,MBC,ATCC 35823,,>8 µg/mL
COc1cc(-c2nn(CN3CCN(Cn4nc(-c5cc(OC)c(OC)c(OC)c5)oc4=S)CC3)c(=S)o2)cc(OC)c1OC,,resazurin,6.25 µg/mL,inhibition,H37Rv,,-67%
Clc1cc(-c2ccccc2)oc1-c1ccccc1,,,,MIC,H37Rv,,>100 µg/mL
CC1=C2[C@@H]3OC(=O)[C@H](C)[C@H]3CC[C@]2(C)C=C/C1=N\O,,BACTEC,12.8 µg/mL,inhibition,H37Rv,,-5%
O=C(c1ccccc1)c1ccc(Br)cc1,,,,MIC,H37Rv,,50 µg/mL
c1ccc(-c2ccc(-c3ccc(C4=NCCN4)cc3)o2)cc1,,BACTEC,12.5 µg/mL,inhibition,H37Rv,,99%
CC(=O)Oc1ccc(C(=O)O)c(OC(C)=O)c1,,,,MIC,H37Rv,,50 µg/mL
CC(/C=N/Nc1ccc(C(=O)O)cc1)=N\NC(=O)CC#N,,BACTEC,,MIC bound,H37Rv,,>12.5 µg/mL
Cc1cc(=O)oc2ccc(O)cc12,,,,MIC,H37Rv,,25 µg/mL
CO[C@H]1/C=C/O[C@@]2(C)Oc3c(C)c(O)c4c(O)c(c(/C=N/N5CCN(Cc6ccccc6)CC5)c(O)c4c3C2=O)NC(=O)/C(C)=C\C=C\[C@H](C)[C@H](O)[C@@H](C)[C@@H](O)[C@@H](C)[C@H](OC(C)=O)[C@@H]1C,,,,MIC,KM-R,,0.01 µg/mL
O=c1oc2ccc(Br)cc2c(=O)n1-c1cccc(Cl)c1,,,,MIC,CNCTC MY331/88,,4 µM
CC1(C)[C@H]2CC[C@@H](CNCCNCC34CC5CC(CC(C5)C3)C4)[C@@H]1C2,,,,MIC,,,3.13 µM
COc1ccccc1CSc1ncnc2nc[nH]c12,,,6.25 µg/mL,inhibition,H37Rv,,0%
NCC[C@H](O)C(=O)N[C@@H]1C[C@H](N)[C@@H](O[C@H]2O[C@H](CN)[C@@H](O)[C@H](O)[C@H]2O)[C@H](O)[C@H]1O[C@H]1O[C@H](CO)[C@@H](O)[C@H](N)[C@H]1O,,,,MIC,TN4800 (W33),,>256 µg/mL
CCOc1ccccc1CNCCNC[C@]1(C)CCC[C@]2(C)c3ccc(C(C)C)cc3CC[C@@H]12,,,,MIC,,,25 µM
CC(NNC(=O)c1ccncc1)c1ccc(Cl)c(Cl)c1,,,,MIC,H37Rv,,1.6 µg/mL
Cc1cccc(CSc2nc(=O)[nH]c3nc[nH]c23)c1,,,,MIC90,H37Rv,,>6.25 µg/mL
CC1=NN(c2ccccc2C)C(=O)C1,,,,MIC,H37Rv,,>100 µg/mL
S=C(S)N1CCCC1,,,,MIC,RMP-R,,0.4 µg/mL
c1c[nH]c(Sc2ncnc3nc[nH]c23)n1,,,,MIC90,H37Rv,,>6.25 µg/mL
C/C(=N\NC(=O)c1ccncc1)c1ccc(F)cc1,,,,MBC,Rifampicin-resistant,,>1.6 µg/mL
CC(C)NCCNC[C@]1(C)CCC[C@]2(C)c3ccc(C(C)C)cc3CC[C@@H]12,,,,MIC,,,50 µM
C/C(=N\NC(=O)c1ccncc1)c1ccccc1F,,,,MIC,Thiacetazone-resistant,,>6.25 µg/mL
Cc1ccc2c(=O)n(-c3ccc(F)cc3)c(=O)oc2c1,,,,MIC,CNCTC MY331/88,,32 µM
C=CC1CN2CCC1CC2C(OC(=O)C(O)c1ccccc1)c1ccnc2ccccc12,,resazurin,6.25 µg/mL,inhibition,H37Rv,,8%
Cc1ccc(CNCCNC(C)Cc2c[nH]c3ccccc23)cc1,,,,MIC,,,50 µM
Nc1ccc(S(=O)(=O)c2ccc([N+](=O)[O-])cc2)cc1,,,,MIC,H37Rv,,6.25 µg/mL
FC(F)(F)c1ccc2c(c1)N(CCCN1CCN(CCC3OCCCO3)CC1)c1ccccc1S2,,,,MIC,H37Rv,,>12.5 µg/mL
COC(=O)CCCCC(=O)Nc1ccc(I)cc1I,,,,MIC,H37Rv,,50 µg/mL
CC1COc2c(N3CCN(C)CC3)c(F)cc3c(=O)c(C(=O)O)cn1c23,,BACTEC,,MIC,SMI 17,,0.5 µg/mL
Cc1ccncc1,,,,MIC,H37Rv,,>100 µg/mL
CCCCCCCCCCCNCCNC[C@@H]1CC[C@H]2C[C@@H]1C2(C)C,,,,MIC,,,25 µM
Nc1ccc2[nH]c(=O)[nH]c2c1.O,,,,MIC,H37Rv,,>100 µg/mL
COc1c(C(=O)/C(=N/Nc2cccc(Cl)c2)C(C)=O)c(O)c(OC)c2occc12,,BACTEC,,MIC bound,H37Rv,,>12.5 µg/mL
CCOC(=O)c1nn(-c2ccc([As](=O)(O)O)cc2)cc1O,,,,MIC,H37Rv,,>100 µg/mL
O=C(O)CCSC(=S)NCCNC(=S)SCCC(=O)O,,resazurin,6.25 µg/mL,inhibition,H37Rv,,2%
O=C(/C=N/O)Nc1ccccc1,,,,MIC,H37Rv,,100 µg/mL
COc1ccc(CCC2CCc3ccccc3N2C)cc1OC,,,,MIC,MT8,,>322 µg/mL
CC1COc2c(N3CCN(C)CC3)c(F)cc3c(=O)c(C(=O)O)cn1c23,,,,MBC90,DRUG-SUS,,1 µg/mL
O=C(N/N=C/c1ccccc1O)c1cccc2ccccc12,,BACTEC,12.5 µg/mL,inhibition,H37Rv,,1%
C[C@H]1COc2c(N3CCN(C)CC3)c(F)cc3c(=O)c(C(=O)O)cn1c23,INH RIF resistant,resazurin,,MIC,Clinical isolate BRF 45,,0.25 µg/mL
Cc1ccc(CSc2ccccn2)cc1,,,6.25 µg/mL,inhibition,H37Rv,,0%
CCCCC1=Nc2c(cc(NC(=O)OCC)nc2N)NC1C,,,,EC50,H37Rv,VERO,<12.5 µg/mL
Cc1ncc(C(=O)O)c(C(=O)O)c1N,,resazurin,,MIC bound,H37Rv,,>6.25 µg/mL
O=C(NCCCCC(O)C(=O)[O-])c1ccccc1.O=C(NCCCCC(O)C(=O)[O-])c1ccccc1.[Ca+2],,,,MIC,H37Rv,,100 µg/mL
CC1CCCCC1NCCNCCC(c1ccccc1)c1ccccc1,,,,MIC,,,6.25 µM
O=S1(=O)c2ccccc2Oc2cc(Cl)ccc21,,,,MIC,H37Rv,,100 µg/mL
CCCCC(CC)CN1CN(CC(CC)CCCC)CC(C)(NCCNC2CCCCC2C)C1,,,,MIC,,,25 µM
CCOC(=O)CN1CC(C)(C)N(CC(=O)OCC)CC1(C)C,,BACTEC,,MIC bound,H37Rv,,>12.8 µg/mL
CCCCC(CC)CN1CN(CC(CC)CCCC)CC(C)(NCCNCc2ccc3c(c2)OCO3)C1,,,,MIC,,,12.5 µM
c1ccc2c3c(oc2c1)CCCC3,,,,MIC,H37Rv,,>100 µg/mL
COc1ccc(CCc2cc(OC)c3ccccc3n2)cc1OC,,,,MIC,MT7,,25 µg/mL
Cc1cccc(C)c1Sc1nc(Cl)nc2nc[nH]c12,,,6.25 µg/mL,inhibition,H37Rv,,1%
CC(=O)n1cc2cc([N+](=O)[O-])ccc2n1,,BACTEC,6.25 µg/mL,inhibition,H37Rv,,0%
C/C(=N\NC(=O)c1ccncc1)c1ccccc1,,,,MIC,Ethambutol-resistant,,0.2 µg/mL
c1ccc(CSc2ccncc2)cc1,,,,MIC90,H37Rv,,>6.25 µg/mL
COc1cc(NCCCNc2c3ccc(Cl)cc3nc3ccc(OC)cc23)c2ncccc2c1,,,,MIC,H37Rv,,100 µg/mL
O=C1C(=O)c2nc3ccccc3nc2-c2ccccc21,,BACTEC,,MIC,H37Rv,,12.5 µg/mL
O=C(O)c1cc(Br)c(Br)c(Br)c1,,,,MIC,H37Rv,,50 µg/mL
O=C(CCCC(=O)NNC(=S)Nc1cccc2ccccc12)NNC(=S)Nc1cccc2ccccc12,,BACTEC,,MIC,H37Rv,,≥12.5 µg/mL
Clc1ccc(CCNCCNC2CCCCCCC2)c(Cl)c1,,,,MIC,,,50 µM
Cc1cccc(CSc2ncnc3nc[nH]c23)c1,,,,MIC,H37Ra,,>12.8 µg/mL
CC[C@H]1OC(=O)[C@H](C)[C@@H](O[C@H]2C[C@@](C)(OC)[C@@H](O)[C@H](C)O2)[C@H](C)[C@@H](O[C@@H]2O[C@H](C)C[C@H](N(C)C)[C@H]2O)[C@](C)(OC)C[C@@H](C)C(=O)[C@H](C)[C@@H](O)[C@]1(C)O,,,,MIC,104396,,>4 µg/mL
Cc1ccc(-n2c(=O)oc3ccccc3c2=O)cc1,,,,MIC,CNCTC MY331/88,,62 µM
COc1ccc(OC)c(CCNCCNCc2ccc(C(F)(F)F)cc2)c1,,,,MIC,,,12.5 µM
Cc1ccc(-n2c(=O)oc3ccc(C)cc3c2=O)cc1,,,,MIC,CNCTC MY331/88,,62 µM
NCC[C@H](O)C(=O)N[C@@H]1C[C@H](N)[C@@H](O[C@H]2O[C@H](CN)[C@@H](O)[C@H](O)[C@H]2O)[C@H](O)[C@H]1O[C@H]1O[C@H](CO)[C@@H](O)[C@H](N)[C@H]1O,,broth dilution / resazurin,,MIC,MDR18,,4 µg/mL
CCCCCCCCCCCNCCNC1CCCCC1,,,,MIC,,,25 µM
CN(C)c1ccc(O)cc1.O=S(=O)(O)O,,,,MIC,H37Rv,,>100 µg/mL
C=CCNCCNC(C)CO,,,,MIC,,,50 µM
CCOC(=O)Nc1cc(NC/C(=C\O)CN(C)c2ccccc2)c([N+](=O)[O-])c(N)n1,,,12.5 µg/mL,inhibition,H37Rv,,30%
c1csc(CCNCCNC2C3CC4CC(C3)CC2C4)c1,,,,MIC,,,25 µM
C[C@H]1C[C@H](N)CN1c1cc2c(cc1F)c(=O)c(C(=O)O)cn2-c1ccc(F)cc1F,,,,MIC,ATCC 35828,,4 µg/mL
OCc1ccccc1Sc1ccccc1CNCCNCCCc1ccccc1,,,,MIC,,,50 µM
NC(=O)C1=C[C@H]2[C@H]3C=C[C@@]2(O)C(=O)O[C@@H]3O1,,,,MIC,INH-r,,6.3 µg/mL
N#CCCOc1ccc(OCCC#N)cc1,,,,MIC,H37Rv,,>100 µg/mL
CC(NNC(=O)c1ccncc1)c1ccc(F)cc1,,,,MIC,Isoniazid-resistant,,>50 µg/mL
CC1N(C)CCC1(C)CN1c2ccccc2Sc2ccccc21.Cl,,,,MIC,H37Rv,,12.5 µg/mL
CCCCCC(C)NCCNCCCCc1ccccc1,,,,MIC,,,25 µM

For reference, 5 entries again:

SMILES | changes | method | dose | endpoint | strain | cells | value
O=C(O)CCSC(=S)NCCNC(=S)SCCC(=O)O |  | resazurin | 6.25 µg/mL | inhibition | H37Rv |  | 2%
Cc1cccc(C)c1Sc1nc(Cl)nc2nc[nH]c12 |  |  | 6.25 µg/mL | inhibition | H37Rv |  | 1%
CC(/C=N/Nc1ccc(C(=O)O)cc1)=N\NC(=O)CC#N |  | BACTEC |  | MIC bound | H37Rv |  | >12.5 µg/mL
CCOc1ccccc1CNCCNC[C@]1(C)CCC[C@]2(C)c3ccc(C(C)C)cc3CC[C@@H]12 |  |  |  | MIC |  |  | 25 µM
Cc1cccc(CSc2nc(=O)[nH]c3nc[nH]c23)c1 |  |  |  | MIC90 | H37Rv |  | >6.25 µg/mL